Compound potency records, mixed from different reports. Data source: NIAID ChemDB in PubChem.

Common to all: enzyme or target tests; species: HIV-1; target: Protease; method: fluorescence; read-out: IC50

ICn: concentration for n% inhibition.

smiles	setting	mutations	result
COc1cc(CN2C(=O)N(Cc3ccc(O)c(OC)c3)N(C(=O)CCc3ccc4c(c3)OCO4)C[C@@H](O)[C@H]2Cc2ccccc2)ccc1O	-	-	<0.0005 µM
COc1ccc(S(=O)(=O)N(CC(C)C)C[C@@H](O)[C@H](Cc2ccccc2)NC(=O)c2ccc(CS(C)(=O)=O)cc2)cc1	-	-	<1 µM
COC(=O)c1cc(NC(=O)c2nc3ccc(NC(=O)c4cc(NC(=O)OC(C)(C)C)cs4)cc3o2)cs1	-	L24I/M46I/F53L/L63P/V77I/V82A	10.6 µM
CC(C)c1nc(CN(C)C(=O)N[C@H](C(=O)NN(Cc2cccc(O)c2)C[C@H](O)[C@H](Cc2ccccc2)NC(=O)OCc2cncs2)C(C)C)cs1	-	-	~0.0005 µM
COc1ccc(C[C@H](C[C@H](O)[C@H](Cc2ccccc2)NC(=O)OC(C)(C)C)C(=O)N[C@H](C(=O)N[C@@H](Cc2ccccc2)C(=O)N2CCOCC2)C(C)C)cc1	-	-	0.011 µM
COc1cc(CN2C(=O)N(Cc3ccc(O)c(OC)c3)N(C(=O)CC3CCCC3)C[C@@H](O)[C@H]2Cc2ccccc2)ccc1O	-	-	<0.0005 µM
CC(C)c1nc(CN(C)C(=O)N[C@H](C(=O)NN(Cc2ccccc2)C[C@H](O)[C@H](Cc2ccccc2)NC(=O)OCc2cncs2)C(C)C)cs1	-	-	<0.0005 µM
CC(=O)N[C@H](C(=O)N[C@@H](CC(C)C)C(=O)N[C@@H](CC(N)=O)C(=O)N[C@@H](Cc1ccccc1)C(=O)O)[C@@H](C)O	pH 5.0	-	76.35 µM
CC(C)(C)NC(=O)c1ccccc1C[C@@H](O)[C@H](Cc1ccccc1)NC(=O)[C@H](CC(N)=O)C(N)C(=O)c1ccc2ccccc2c1	-	-	0.0071 µg/mL
CC(C)C[C@H](NC(=O)[C@@H](NC(=O)CCCCCNC(=O)[C@H](Cc1ccccc1)NC(=O)[C@H](CCC(=O)O)NC(=O)[C@H](Cc1ccccc1)NC[C@H](Cc1ccccc1)NC(=O)OC(C)(C)C)[C@@H](C)O)C(=O)N[C@@H](CC(N)=O)C(=O)N[C@@H](Cc1ccccc1)C(=O)O	pH 7.0	-	0.567 µM
CC[C@H](C)[C@H](NC(=O)[C@@H]1CCCN1C[C@@H](O)[C@H](Cc1ccccc1)NC(=O)[C@H](CC(N)=O)NC(=O)[C@H](CC(C)C)NC(=O)[C@H](CO)NC(C)=O)C(=O)N[C@H](C(=O)NC(C)=O)C(C)C	-	-	0.00061 µM
CC(C)[C@H](NC(=O)[C@H](Cc1ccc2c(c1)OCO2)C[C@H](O)[C@H](Cc1ccccc1)NC(=O)OC(C)(C)C)C(=O)NCCN(C)C	-	-	0.0075 µM
CC(C)(C)NC(=O)c1ccccc1C[C@@H](O)[C@H](Cc1ccccc1)NC(=O)[C@H](CC(=O)NNc1ccccn1)NC(=O)c1ccc2ccccc2n1	-	-	0.00016 µg/mL
CC(C)CN(C[C@@H](O)[C@H](Cc1ccccc1)NC(=O)OCc1ccccc1)S(C)(=O)=O	-	-	<10 µM
CC(C)c1nc(CN(C)C(=O)N[C@H](C(=O)NN(Cc2ccccc2)C[C@H](O)[C@H](Cc2ccccc2)NC(=O)OCc2ccccc2)C(C)C)cs1	-	-	<0.0005 µM
COCCNC(=O)[C@@H](NC(=O)[C@H](Cc1ccc(OC)cc1)C[C@H](O)[C@H](Cc1ccccc1)NC(=O)OC(C)(C)C)C(C)C	-	-	0.002 µM
COc1ccc(S(=O)(=O)N(CC(C)C)C[C@@H](O)[C@H](Cc2ccccc2)NC(=O)c2ccccc2S(C)(=O)=O)cc1	-	-	<10 µM
CC(C)c1nc(CN(C)C(=O)N[C@H](C(=O)NN(Cc2ccccc2)C[C@H](O)[C@H](Cc2ccccc2)NC(=O)OCc2ccno2)C(C)C)co1	-	-	<0.0005 µM
COc1ccccc1C[C@H](C[C@H](O)[C@H](Cc1ccccc1)NC(=O)OC(C)(C)C)C(=O)N[C@H](C(=O)NCCN(C)C)C(C)C	-	-	0.01 µM
CC(C)c1nc(CN(C)C(=O)N[C@H](C(=O)NN(Cc2cccc(O)c2)C[C@H](O)[C@H](Cc2ccccc2)NC(=O)OCc2cncs2)C(C)C)cs1	-	-	~0.0005 µM
COc1ccc(C[C@H](C[C@H](O)[C@H](Cc2ccccc2)NC(=O)OC(C)(C)C)C(=O)N[C@H](C(=O)NCCN(C)C)C(C)C)cc1OC	-	-	0.008 µM
COc1ccc(CN(C[C@H](O)[C@H](Cc2ccccc2)NC(=O)[C@@H](NC(=O)OCc2ccccn2)C(C)C)NC(=O)OC(C)(C)C)cc1	-	-	~0.0005 µM
CC(C)[C@H](NC(=O)OCc1ccccn1)C(=O)N[C@@H](Cc1ccccc1)[C@@H](O)CN(Cc1ccccc1)NC(=O)OCc1cccnc1	-	-	<0.0005 µM
CC1(NC(=O)c2ccccc2C[C@@H](O)[C@H](Cc2ccccc2)NC(=O)[C@H](CC(N)=O)NC(=O)c2ccc3ccccc3n2)CCCCC1	-	-	0.00076 µg/mL
CC(C)CCN(C[C@@H](O)[C@H](Cc1ccccc1)NC(=O)OCc1ccccc1)S(=O)(=O)Cc1ccccc1	-	-	>10 µM
CC(C)c1nc(CN(C)C(=O)N[C@H](C(=O)NN(Cc2ccccc2)C[C@H](O)[C@H](Cc2ccccc2)NC(=O)OCc2ccno2)C(C)C)co1	-	-	<0.0005 µM
CC(C)(C)NC(=O)c1ccccc1C[C@@H](O)[C@H](Cc1ccccc1)NC(=O)[C@H](CCC(=O)O)NC(=O)c1ccc2ccccc2n1	-	-	0.013 µg/mL
CC(C)CC(=O)N1C[C@@H](O)[C@@H](Cc2ccccc2)N(Cc2cccc(N)c2)C(=O)N1Cc1cccc(N)c1	pH 4.5	-	<0.0005 µM
CC(C)CCN(C[C@@H](O)[C@H](Cc1ccccc1)NC(=O)OCc1ccccc1)S(=O)(=O)CCl	-	-	<10 µM
Cc1cccc(C)c1OCC(=O)NC(=O)[C@@H]1CCCN1C[C@@H](O)[C@H](Cc1ccccc1)NC(=O)COc1c(C)cccc1C	-	-	0.0096 µM
COc1ccc(S(=O)(=O)N(CC(C)C)C[C@@H](O)[C@H](Cc2ccccc2)NC(=O)c2ccccc2CS(C)(=O)=O)cc1	-	-	<1 µM
COCCNC(=O)[C@@H](NC(=O)[C@H](Cc1cc(OC)c(OC)c(OC)c1)C[C@H](O)[C@H](Cc1ccccc1)NC(=O)OC(C)(C)C)C(C)C	-	-	0.011 µM
COc1cc(CN2C(=O)N(Cc3ccc(O)c(OC)c3)N(C(=O)CCc3cccnc3)C[C@@H](O)[C@H]2Cc2ccccc2)ccc1O	-	-	<0.0005 µM
CC(C)CN(C[C@@H](O)[C@H](Cc1ccccc1)NC(=O)O[C@H]1CO[C@H]2[C@@H]1OC[C@H]2O)S(=O)(=O)c1ccc(N)cc1	-	-	0.00036 µM

For reference, 2 entries again:

COc1ccc(S(=O)(=O)N(CC(C)C)C[C@@H](O)[C@H](Cc2ccccc2)NC(=O)c2ccc(CS(C)(=O)=O)cc2)cc1 ; result: <1 µM
COC(=O)c1cc(NC(=O)c2nc3ccc(NC(=O)c4cc(NC(=O)OC(C)(C)C)cs4)cc3o2)cs1 ; mutations: L24I/M46I/F53L/L63P/V77I/V82A ; result: 10.6 µM

Neighbouring rows are from separate reports. Blank or dashed fields: not listed here.